Source: publication PMC4684341

Experiments:
[1] = target: NS3h_1b (con1) (Hepatitis C virus genotype 1b (con1)) (UniProt Q9WMX2); test: fluorescence polarization; conditions: 1.25 mM MgCl2, no ATP listed; 25 mM MOPS pH 6.5, 1.25 mM MgCl2, 5 nM Cy5-dT15 (Fig 3 legend: 100 nM Cy5), 0.05 mM DTT, 0.005 mg/mL BSA, 0.001% Tween20; recombinant protein; residues 1207-1657; protein details: C-terminal His6 (not removed); single-stranded DNA
NS3h_3a (wt) = target: T1, NS3h_3a (wt) (UniProt Q81258); test: fluorescence polarization; conditions: 1.25 mM MgCl2, no ATP listed; 25 mM MOPS pH 6.5, 1.25 mM MgCl2, 5 nM Cy5-dT15 (Fig 3 legend: 100 nM Cy5), 0.05 mM DTT, 0.005 mg/mL BSA, 0.001% Tween20; recombinant protein; protein details: C-terminal His6 (not removed); single-stranded DNA
T1 sequence (looked up, limits assumed): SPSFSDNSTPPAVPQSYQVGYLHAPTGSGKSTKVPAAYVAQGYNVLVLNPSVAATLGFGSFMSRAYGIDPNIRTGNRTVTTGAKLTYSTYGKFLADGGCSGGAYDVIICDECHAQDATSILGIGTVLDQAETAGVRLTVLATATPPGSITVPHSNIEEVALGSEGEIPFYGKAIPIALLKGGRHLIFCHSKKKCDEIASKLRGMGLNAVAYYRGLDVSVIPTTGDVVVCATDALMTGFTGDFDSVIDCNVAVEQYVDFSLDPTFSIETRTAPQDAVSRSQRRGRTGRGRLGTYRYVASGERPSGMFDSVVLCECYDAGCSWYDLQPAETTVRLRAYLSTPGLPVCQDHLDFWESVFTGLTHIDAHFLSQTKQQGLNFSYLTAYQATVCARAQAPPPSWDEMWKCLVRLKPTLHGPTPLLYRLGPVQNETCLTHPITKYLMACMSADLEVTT

**Q.** With TTTTTTTTTTTTTTT [Cy5-dT15] as the sequence, how does the Kd [1] read?
**A.** 5.2 nM

**Q.** What about the Kd (NS3h_3a (wt)) of the same sequence?
**A.** 2.5 nM

The exact form of at least one protein or probe is not confirmed. For some assays here: Where a protein sequence is shown, tags need not be part of it.
